These compounds were tested on HIV-1 (NL4.3). Settings: anti-HIV EC50 ratio.
Assay type: cell-based

Row | Compound | fold more potent than C2 counterpart AL-471 [fold]
1 | O=C(CCOCC(COCCC(=O)NC(Cc1c[nH]c2c(-c3cc(C(=O)O)cc(C(=O)O)c3)cccc12)C(=O)O)(COCCC(=O)NC(Cc1c[nH]c2c(-c3cc(C(=O)O)cc(C(=O)O)c3)cccc12)C(=O)O)COCCC(=O)NC(Cc1c[nH]c2c(-c3cc(C(=O)O)cc(C(=O)O)c3)cccc12)C(=O)O)NC(Cc1c[nH]c2c(-c3cc(C(=O)O)cc(C(=O)O)c3)cccc12)C(=O)O (stereo not drawn) [Compound 23] | 3.5

Same assay, conditions: selectivity index (CC50/EC50), MT-4 cells

Row | Compound | SI
2 | O=C(CCC(CCC(=O)NC(Cc1c(-c2cc(C(=O)O)cc(C(=O)O)c2)[nH]c2ccccc12)C(=O)O)(CCC(=O)NC(Cc1c(-c2cc(C(=O)O)cc(C(=O)O)c2)[nH]c2ccccc12)C(=O)O)[N+](=O)[O-])NC(Cc1c(-c2cc(C(=O)O)cc(C(=O)O)c2)[nH]c2ccccc12)C(=O)O (stereo not drawn) [AL-470, reference compound] | 370
3 | O=C(CCC(CCC(=O)NC(Cc1c[nH]c2c(-c3cc(C(=O)O)cc(C(=O)O)c3)cccc12)C(=O)O)(CCC(=O)NC(Cc1c[nH]c2c(-c3cc(C(=O)O)cc(C(=O)O)c3)cccc12)C(=O)O)[N+](=O)[O-])NC(Cc1c[nH]c2c(-c3cc(C(=O)O)cc(C(=O)O)c3)cccc12)C(=O)O (stereo not drawn) [Compound 16] | 232.6
4 | O=C(CCOCC(COCCC(=O)NC(Cc1c[nH]c2c(-c3cccc(C(=O)O)c3)cccc12)C(=O)O)(COCCC(=O)NC(Cc1c[nH]c2c(-c3cccc(C(=O)O)c3)cccc12)C(=O)O)COCCC(=O)NC(Cc1c[nH]c2c(-c3cccc(C(=O)O)c3)cccc12)C(=O)O)NC(Cc1c[nH]c2c(-c3cccc(C(=O)O)c3)cccc12)C(=O)O (stereo not drawn) [Compound 21] | 7.1
5 | O=C(CCOCC(COCCC(=O)NC(Cc1c[nH]c2c(-c3ccc(C(=O)O)cc3)cccc12)C(=O)O)(COCCC(=O)NC(Cc1c[nH]c2c(-c3ccc(C(=O)O)cc3)cccc12)C(=O)O)COCCC(=O)NC(Cc1c[nH]c2c(-c3ccc(C(=O)O)cc3)cccc12)C(=O)O)NC(Cc1c[nH]c2c(-c3ccc(C(=O)O)cc3)cccc12)C(=O)O (stereo not drawn) [Compound 22] | 15.5
6 | O=C(CCOCC(COCCC(=O)NC(Cc1c[nH]c2c(-c3cc(C(=O)O)cc(C(=O)O)c3)cccc12)C(=O)O)(COCCC(=O)NC(Cc1c[nH]c2c(-c3cc(C(=O)O)cc(C(=O)O)c3)cccc12)C(=O)O)COCCC(=O)NC(Cc1c[nH]c2c(-c3cc(C(=O)O)cc(C(=O)O)c3)cccc12)C(=O)O)NC(Cc1c[nH]c2c(-c3cc(C(=O)O)cc(C(=O)O)c3)cccc12)C(=O)O (stereo not drawn) [Compound 23] | 4687.5
7 | O=C(CCOCC(COCCC(=O)NC(Cc1c(-c2ccc(C(=O)O)cc2)[nH]c2c(-c3ccc(C(=O)O)cc3)cccc12)C(=O)O)(COCCC(=O)NC(Cc1c(-c2ccc(C(=O)O)cc2)[nH]c2c(-c3ccc(C(=O)O)cc3)cccc12)C(=O)O)COCCC(=O)NC(Cc1c(-c2ccc(C(=O)O)cc2)[nH]c2c(-c3ccc(C(=O)O)cc3)cccc12)C(=O)O)NC(Cc1c(-c2ccc(C(=O)O)cc2)[nH]c2c(-c3ccc(C(=O)O)cc3)cccc12)C(=O)O (stereo not drawn) [Compound 32] | 476.2
8 | O=C(CCC(CCC(=O)NC(Cc1c(-c2cccc(C(=O)O)c2)[nH]c2ccccc12)C(=O)O)(CCC(=O)NC(Cc1c(-c2cccc(C(=O)O)c2)[nH]c2ccccc12)C(=O)O)[N+](=O)[O-])NC(Cc1c(-c2cccc(C(=O)O)c2)[nH]c2ccccc12)C(=O)O (stereo not drawn) [I, reference compound] | 6
9 | O=C(CCC(CCC(=O)NC(Cc1c(-c2ccc(C(=O)O)cc2)[nH]c2ccccc12)C(=O)O)(CCC(=O)NC(Cc1c(-c2ccc(C(=O)O)cc2)[nH]c2ccccc12)C(=O)O)[N+](=O)[O-])NC(Cc1c(-c2ccc(C(=O)O)cc2)[nH]c2ccccc12)C(=O)O (stereo not drawn) [II, reference compound] | 29.6
10 | O=C(CCOCC(COCCC(=O)NC(Cc1c(-c2cccc(C(=O)O)c2)[nH]c2ccccc12)C(=O)O)(COCCC(=O)NC(Cc1c(-c2cccc(C(=O)O)c2)[nH]c2ccccc12)C(=O)O)COCCC(=O)NC(Cc1c(-c2cccc(C(=O)O)c2)[nH]c2ccccc12)C(=O)O)NC(Cc1c(-c2cccc(C(=O)O)c2)[nH]c2ccccc12)C(=O)O (stereo not drawn) [III, reference compound] | 50
11 | O=C(CCOCC(COCCC(=O)NC(Cc1c(-c2ccc(C(=O)O)cc2)[nH]c2ccccc12)C(=O)O)(COCCC(=O)NC(Cc1c(-c2ccc(C(=O)O)cc2)[nH]c2ccccc12)C(=O)O)COCCC(=O)NC(Cc1c(-c2ccc(C(=O)O)cc2)[nH]c2ccccc12)C(=O)O)NC(Cc1c(-c2ccc(C(=O)O)cc2)[nH]c2ccccc12)C(=O)O (stereo not drawn) [IV, reference compound] | 137
12 | CN[C@@H]1[C@H](O[C@@H]2OC[C@@H](O)[C@H](O)[C@H]2O)[C@@H](O)[C@H](O[C@H]2c3cc(C)c(C(=O)N[C@H](C)C(=O)O)c(O)c3-c3c(cc4c(c3O)C(=O)c3cc(OC)cc(O)c3C4=O)[C@@H]2O)O[C@@H]1C [PRM-A, pradimicin A, reference compound] | 30.3

Reference: publication PMC8389807 (Journal of Medicinal Chemistry, 2021)
